## Potato spindle tuber viroid, loop 6: variant abundance in plants

Values reported by Wu et al. 2024 (doi:10.1371/journal.ppat.1012142).

Region: loop 6 of PSTVd (intermediate strain), upper and lower strand joined, each 5' to 3', the first 5 letters being the upper strand, closing pairs included. Wild type: UGACCGCGAG. Varied positions (N): UNNNCGNNNG.

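A pool of all variants was put on leaves of three Nicotiana benthamiana plants. Samples came from the inoculated region at 5 days, the leaf margin at 10 and upper systemic leaves at 12.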

Values are reads per thousand in the sample; higher means more abundant, 0 means not found. Each value is the mean of three plants. "Pool" is the share in the plasmid pool used as inoculum, on the same scale. The inoculated region was read from the minus strand, the other sites from the plus strand. IR is the inoculated region, LM the leaf margin, Sys the systemic leaves. Samples held 36,220 to 57,551 reads, so the smallest values rest on one or two reads.

For UAUCCGCCUG (pool 0.353) the result was IR 0.112; LM 0; Sys 0. UCUCCGCUCG (pool 0.157) gave IR 0.0953; LM 0.00773; Sys 0. With UCGGCGUUUG (pool 0.379) the assay gave IR 0.125; LM 0.00920; Sys 0.00684. UCUUCGGUAG (pool 0.301) read IR 0.0831; LM 0; Sys 0. For UAUCCGCUGG (pool 0.248) the result was IR 0.0650; LM 0; Sys 0. UGCGCGGCUG (pool 0.222) read IR 0.0829; LM 0.00773; Sys 0. With UGCCCGCCCG (pool 0.170) the assay gave IR 0.0650; LM 0.0169; Sys 0.

For UAGGCGGAAG (pool 0.183) the result was IR 0.0534; LM 0; Sys 0. For UGUGCUCCUG (pool 0.0131) the result was IR 0; LM 0; Sys 0. UCUACGUUGG (pool 0.235) read IR 0.102; LM 0; Sys 0. UCUACGAUUG (pool 0.340) gave IR 0.131; LM 0.00773; Sys 0. With UCACCGAGGG (pool 0.0523) the assay gave IR 0.0597; LM 0.0324; Sys 0. UGCCCGAAUG (pool 0.196) read IR 0.0894; LM 0.00920; Sys 0. UACGCGCUGG (pool 0.157) read IR 0.0596; LM 0.00920; Sys 0.

UCAUCGCGGG (pool 0.170) read IR 0.0777; LM 0.00920; Sys 0. With UGCGCGCUCG (pool 0.196) the assay gave IR 0.0960; LM 0; Sys 0.00599. UCCCCGGUAG (pool 0.275) gave IR 0.100; LM 0.0324; Sys 0. UGACCGGUCG (pool 0.431) gave IR 0.205; LM 0.257; Sys 0.132. UACUCGAUAG (pool 0.327) read IR 0.108; LM 0.0464; Sys 0. UUGGCGGGAG (pool 0.275) read IR 0.120; LM 0.0184; Sys 0.0338. UUAACGGCAG (pool 0.340) gave IR 0.781; LM 0.185; Sys 0.0788.

For UGCUCGCCGG (pool 0.183) the result was IR 0.101; LM 0.0155; Sys 0. UACACGUAUG (pool 0.222) gave IR 0.0831; LM 0.107; Sys 0. For UUUUCGAAGG (pool 0.144) the result was IR 0.0784; LM 0; Sys 0. For UGCUCGGUCG (pool 0.131) the result was IR 0.107; LM 0.0169; Sys 0. With UGUACGAGGG (pool 0.248) the assay gave IR 0.0952; LM 0.00920; Sys 0. UAAACGACAG (pool 0.131) gave IR 0.627; LM 0.119; Sys 0.0128. For UUCCCGUCCG (pool 0.196) the result was IR 0.0710; LM 0.00920; Sys 0.

UAACCGUCUG (pool 0.327) read IR 0.107; LM 0.00773; Sys 0. For UGAACGUAAG (pool 0.0654) the result was IR 0.631; LM 0.0499; Sys 0. For UCAGCUGUGG (pool 0.0131) the result was IR 0; LM 0; Sys 0. With UUGGCGUACG (pool 0.405) the assay gave IR 0.0596; LM 0.0261; Sys 0.00684. UUUCCGUUUG (pool 0.510) read IR 0.179; LM 0.00773; Sys 0.00684. For UUAACGAAUG (pool 0.431) the result was IR 0.119; LM 0.0232; Sys 0. With UGAUCGCUCG (pool 0.523) the assay gave IR 0.0961; LM 0.00773; Sys 0.00599.

Extract of 4 entries:

- UGACCGGUCG (pool 0.431) = IR 0.205; LM 0.257; Sys 0.132
- UGUACGAGGG (pool 0.248) = IR 0.0952; LM 0.00920; Sys 0
- UGCUCGCCGG (pool 0.183) = IR 0.101; LM 0.0155; Sys 0
- UCUACGUUGG (pool 0.235) = IR 0.102; LM 0; Sys 0

The authors trace changes outside the varied positions to PCR and sequencing errors or to mutation in the plant; presence does not show that a variant is infectious alone. For reference, wild type rose from 20.7 per thousand in the pool to 195, 198, 203 (inoculated region), 629, 591, 734 (leaf margin) and 942, 870, 868 (systemic leaves).